PubChem BioAssay AID624099 – ICCB-Longwood, 2012
Screen: 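Human genes that papillomavirus E2 requires to repress the HPV18 LCR promoter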 (primary screen). Cell system: human C33A cervical carcinoma cells (HPV-negative) stably expressing BPV1 E2 and an HPV18 LCR luciferase reporter. Reagents: siRNA pool against human genes, 40 nM. Time to read-out: 72 h. Measurement: 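Per-well luciferase luminescence, z-scored on each plate against the plate mean and SD with control wells left out, then averaged across three replicate plates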. Scale: mean z-score and z-score: higher = stronger reporter signal, weaker E2 silencing. Hit rule: 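Mean z ≥ 2 together with z ≥ 2 in two or more of the three replicates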.
The deposit covers about 21,000 reagents; this is an unselected part. 497 of them (2.4%) were called active. 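Higher z means weaker E2 silencing; only reporter increases were scored, and knock-downs that hurt cell survival may mask genuine repressor factors.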 The numbers tell different reagents against one gene apart.

FMR1
- mean z-score: 0.03
- z-score, replicate A: 0.59
- z-score, replicate B: -0.38
- z-score, replicate C: -0.13
- Outcome: inactive

EMP3
- mean z-score: 0.33
- z-score, replicate A: 0.86
- z-score, replicate B: 0.17
- z-score, replicate C: -0.06
- Outcome: inactive

NAA20
- mean z-score: 0.24
- z-score, replicate A: -0.01
- z-score, replicate B: 0.18
- z-score, replicate C: 0.56
- Outcome: inactive

TBP
- mean z-score: 2.01
- z-score, replicate A: 1.64
- z-score, replicate B: 2.01
- z-score, replicate C: 2.37
- Outcome: active

DPYSL4
- mean z-score: -0.43
- z-score, replicate A: -0.45
- z-score, replicate B: -0.53
- z-score, replicate C: -0.3
- Outcome: inactive

BAAT
- mean z-score: 0.96
- z-score, replicate A: 1.27
- z-score, replicate B: 0.7
- z-score, replicate C: 0.9
- Outcome: inactive

FER1L5
- mean z-score: -0.77
- z-score, replicate A: -0.92
- z-score, replicate B: -0.7
- z-score, replicate C: -0.68
- Outcome: inactive

PRUNE2 #1
- mean z-score: -0.69
- z-score, replicate A: -0.79
- z-score, replicate B: -0.85
- z-score, replicate C: -0.45
- Outcome: inactive

PRUNE2 #2
- mean z-score: -0.77
- z-score, replicate A: -0.79
- z-score, replicate B: -0.78
- z-score, replicate C: -0.73
- Outcome: inactive

KCNK6
- mean z-score: 0.06
- z-score, replicate A: 0.24
- z-score, replicate B: -0.11
- z-score, replicate C: 0.04
- Outcome: inactive

SMPD2
- mean z-score: 0.33
- z-score, replicate A: 0.37
- z-score, replicate B: 0.39
- z-score, replicate C: 0.24
- Outcome: inactive

MROH5
- mean z-score: 0.95
- z-score, replicate A: 0.65
- z-score, replicate B: 1.45
- z-score, replicate C: 0.74
- Outcome: inactive

ATP6V0E2
- mean z-score: -1.2
- z-score, replicate A: -1.4
- z-score, replicate B: -0.99
- z-score, replicate C: -1.2
- Outcome: inactive

A few values from the entries so far:
DPYSL4, z-score, replicate A: -0.45
Value of FMR1 under “z-score, replicate C”: -0.13

More results:
MACIR
- mean z-score: 0.09
- z-score, replicate A: 0.03
- z-score, replicate B: 0.13
- z-score, replicate C: 0.11
- Outcome: inactive

MET
- mean z-score: -0.47
- z-score, replicate A: -0.85
- z-score, replicate B: -0.14
- z-score, replicate C: -0.41
- Outcome: inactive

KREMEN1
- mean z-score: 0.14
- z-score, replicate A: -0.03
- z-score, replicate B: 0.28
- z-score, replicate C: 0.17
- Outcome: inactive

GSTM4
- mean z-score: 0.32
- z-score, replicate A: -0.07
- z-score, replicate B: 0.62
- z-score, replicate C: 0.41
- Outcome: inactive

ATOSB
- mean z-score: 0.74
- z-score, replicate A: 0.98
- z-score, replicate B: 0.42
- z-score, replicate C: 0.81
- Outcome: inactive

SMTNL2
- mean z-score: -0.06
- z-score, replicate A: -0.23
- z-score, replicate B: 0.31
- z-score, replicate C: -0.26
- Outcome: inactive

LINC00954
- mean z-score: -1.52
- z-score, replicate A: -1.54
- z-score, replicate B: -1.3
- z-score, replicate C: -1.71
- Outcome: inactive

GASAL1
- mean z-score: -0.47
- z-score, replicate A: -0.26
- z-score, replicate B: -0.35
- z-score, replicate C: -0.81
- Outcome: inactive
